In test [1] the target is rS D614G (Wuhan). Put plainly: ELISA, plate coated with rS, serial dilution of the mAb, anti-mouse HRP, A450. On the technique in general: ELISA stands for enzyme-linked immunosorbent assay.
Test [2] has as its target rS D614G (Wuhan). Described as above. The source holds these as a separate data set.

Here are results for 2 molecules from US20250066456A1 (NOVAVAX, published 2025).

Where two headings read alike, the source gives them in different places.

B1: 322.3 (antibody, V domains shown)
VH: RVQLQQSGPELVKPGASVTISCKASGYIFTSDYIHWVKQRPGQGPEWIGWIYPGNINTKYNEKFKGKATLTADKSSSTAYMQLSSLTSEDSAVYFCARDDGNLYYYAMDYWGQGTSVTVSS
VL: NIVLTQSPASLAVSLGQRATISCRASESVDSYGSSFMHWYQQKPGQPPKLLIYLASNLESGVPARFSGSGSRTDFTLTIDPVEADDAATYYCQQNNEDPRTFGGGTKLEIK
Regarding B1, the half-maximal effective concentration (EC50) – broadly, the concentration that produces a half-maximal response – in the test with rS D614G (Wuhan) [1] turned out to be 0.029 mg/L.

B2: 425.6 (antibody, V domains shown)
VH: VQLKQSGPSLVQPSQSLSITCTVSGFSLTSYGIHWVRQSPGKGLEWLGVIWRGGSTDYNAAFMSRLTITKDNSKSQVFFKMNSLQADDTAIYYCATHTEGDDVDYWGQGTSVTVSS
VL: QIVLTQSPAIMSVSPGEKVTMTCSASSTMSFMYWYQQKPGSSPRLLIYDTSNLASGVPVRFSGSGSGTSYSLTISRVEAEDAATYYCQQWNTYPLTFGAGTKLELKR
Regarding B2, in the test with rS D614G (Wuhan) [2], a half-maximal response (EC50) required 0.01 mg/L.
